Pooled drug test results. Numbers come from NIAID ChemDB, via PubChem.

Common to all: growth or infection tests

Fold resistance: result on the changed form divided by that on wild type. An empty or dashed field is not shown. Percent inhibition refers to the dose given; in toxicity tests it is the harm to the cells. A number after MIC or MFC names an inhibition level or a share of isolates. ECn is the concentration giving n% inhibition of infection, replication or growth. a–b is a range or a potency band. Rows are shuffled and stem from different studies.

smiles	species	strain or isolate	mutations	cells	read by	conditions	measure	dose	value
Nc1ncnc2c1ncn2[C@@H]1C[C@H](N)[C@@H](O)[C@H]1O	Measles virus	SA		CV-1	neutral red		EC50		>100 µg/mL
CC(=O)Oc1ccccc1C(=O)O.C[C@@H]1[C@H](O)[C@@H](C)/C=C/C=C/C=C/C=C/C=C/C=C/C=C/[C@H](O[C@@H]2O[C@H](C)[C@@H](O)[C@H](N)[C@@H]2O)C[C@@H]2O[C@](O)(C[C@@H](O)C[C@@H](O)[C@H](O)CC[C@@H](O)C[C@@H](O)CC(=O)O[C@H]1C)C[C@H](O)[C@H]2C(=O)O	Aspergillus fumigatus	AF293			broth dilution		inhibition	32 µg/mL	99.43%
CCc1ccc(S(=O)(=O)NC(=O)c2ccccc2O)cc1	Toxoplasma gondii			Human foreskin fibroblasts			MIC50		>0.25 µM
C[C@@H](c1nc(-c2ccc(C#N)cc2)cs1)[C@](O)(Cn1cncn1)c1cc(F)ccc1F	Cryptococcus gattii				broth dilution		MIC90		0.125 µg/mL
CCC(CC)[C@H](NC(C)=O)[C@@H]1[C@H](O)[C@@H](C(=O)O)C[C@H]1N=C(N)N	Influenza A virus	Influenza A/Victoria/3/75 (H3N2)		MDCK			EC50		0.1 µM
CC(C)(O)c1cn(-c2ccc3ccccc3c2)nn1	Candida tropicalis	URM 4790			broth dilution		inhibition	2048 µg/mL	0%
O=C(Nc1cc(C(F)(F)F)cc(C(F)(F)F)c1)NN(C(=O)Nc1cc(C(F)(F)F)cc(C(F)(F)F)c1)c1nc2ccccc2s1	Escherichia coli	ES142					MIC		>300 µM
Cc1cc(CCCCCOc2cc(Cl)c(-c3nnco3)c(Cl)c2)on1	Rhinovirus	Serotype 14					MIC80		2.02 µg/mL
Fc1cccc(-n2c(=S)oc3ccc(Br)cc3c2=S)c1	Mycobacterium kansasii	6509/96				21 d	MIC		8 µM
CCC(C)CN=C(N)c1ccc(N2CCN(c3ccccc3)CC2)cc1	Pneumocystis carinii						inhibition	10 µg/mL	92%
CCc1ccc(C(=O)Nc2cn(C(C)=O)c3ccccc23)cc1	Toxoplasma gondii			Human foreskin fibroblasts			MIC90		>0.125 µM
Cc1cc(CCCCCCCOc2ccc(-c3nnc(C)o3)cc2)on1	Rhinovirus	serotype 2 1A 1B 6 14 21 22 15 25 30 50 67 89 86 41					MIC80		3.2 µg/mL
Fc1ccc(-n2c(=S)oc3ccc(F)cc3c2=S)cc1	Mycobacterium kansasii	6509/96				21 d	MIC		8 µM
Cc1ccc(-n2cc(C(C)(C)O)nn2)cc1C	Candida parapsilosis	URM 4818			broth dilution		inhibition	2048 µg/mL	0%
CC(C)Nc1nc2cc(Cl)c(Cl)cc2n1[C@H]1O[C@@H](CO)[C@H](O)[C@@H]1O	Rat cytomegalovirus			HFF	plaque count		EC50		>11 µM
Cc1cc(-c2noc(C(F)(F)F)n2)cc(C)c1OCCCc1cccnn1	Enterovirus			HeLa	cytopathic effect		EC50		0.033–0.659 µg/mL
O=C(Nc1cc(C(F)(F)F)cc(C(F)(F)F)c1)NN1CCOCC1	Escherichia coli	ES142					MIC		>300 µM
Nc1ncnc2c1ncn2[C@@H]1C=C[C@@H](O)[C@H]1O	Measles virus			CV-1	virus yield		EC50		<0.1 µg/mL
O=S(=O)(O)c1ccc2ccc(S(=O)(=O)O)cc2c1	Adenovirus	TYPE 3		Human embryonic lung cells	cytopathic effect		inhibition	5 µg/mL	10%
CC(N)C12CC3CC(CC(C3)C1)C2	Influenza A virus	H3N2 10 french isolates		VERO	ELISA		EC50		0.07 µg/mL
CCOC(=O)c1ccc(OCCC2CCN(c3ccc(C)nn3)CC2)cc1	Rhinovirus	1059 (ICAM-1 receptor group 14)		KB	neutral red		EC50		0.027 µM
COCc1ccc(CCCOc2cc(C)c(-c3noc(C(F)(F)F)n3)c(C)c2)nn1	Enterovirus			HeLa	cytopathic effect		EC50		0.033–0.659 µg/mL
CC(C)(O)c1cn(-c2cccc3ccccc23)nn1	Candida parapsilosis	URM 4984			broth dilution		inhibition	2048 µg/mL	0%
N#Cc1ccc(CSc2ncnc3c2ncn3[C@@H]2O[C@H](CO)[C@@H](O)[C@H]2O)cc1	Toxoplasma gondii	RH (WILD TYPE)					inhibition	50 µM	100%
CC(C)Nc1nc2cc(Cl)c(Cl)cc2n1[C@H]1O[C@@H](CO)[C@H](O)[C@@H]1O	Human cytomegalovirus	8805REC1 (MET460VAL)		MRC-5	hybridisation		EC50		0.03 µM
CN(c1ccccc1)c1nc(C(F)(F)F)nc2c1ncn2Cc1ccccc1	Rhinovirus	Serotype 1B		M-HELA	plaque count		EC50		2.3 µM
Nc1ccc2cc(S(=O)(=O)O)cc(S(=O)(=O)O)c2c1	Herpes simplex virus			Human amnion AV3 cells	cytopathic effect		inhibition	10 µg/mL	0%
O=C(Nc1cccc(C2=NCCN2)c1)Nc1cccc(C(F)(F)F)c1	Escherichia coli	ES142					MIC		>300 µM
Nc1nc2c(ncn2CCC(CO)CO)c(=O)[nH]1	Bovine herpesvirus 1	Oxford 1964		EBTR	plaque count		EC50		100 µg/mL
Cc1ccc(CCCOc2c(C)cc(-c3nnn(C)n3)cc2C)nn1	Enterovirus			HeLa	cytopathic effect		EC50		0.033–0.659 µg/mL
Cc1ccc(C(C)C)cc1O	Aspergillus fumigatus	ATCC 46645					MLC		0.32 µg/mL
O=S(=O)(O)c1cccc2c(O)cccc12	Adenovirus	TYPE 3		Human embryonic lung cells	cytopathic effect		inhibition	5 µg/mL	0%
COc1ccc2oc(=S)n(-c3ccc(C(F)(F)F)cc3)c(=S)c2c1	Mycobacterium kansasii	My 235/80				21 d	MIC		32 µM
Cc1ccc(C(=O)Nc2ccc(S(=O)(=O)O)c3cc(S(=O)(=O)O)cc(S(=O)(=O)O)c23)cc1NC(=O)c1cccc(NC(=O)Nc2cccc(C(=O)Nc3cc(C(=O)Nc4ccc(S(=O)(=O)O)c5cc(S(=O)(=O)O)cc(S(=O)(=O)O)c45)ccc3C)c2)c1	Herpes simplex virus			Human conjunctiva cells	cytopathic effect		inhibition	10 µg/mL	70%
Nc1nc2c(ncn2COCCO)c(=O)[nH]1	Herpes simplex virus 2	M23277 (acyclovir-susceptible)		HFF	cytopathic effect		EC50		2.5 µg/mL
N#Cc1cc([N+](=O)[O-])ccc1Oc1ccc(Cl)c(Cl)c1	Coxsackie virus	TYPE A21		VERO			inhibition	0.19 µg/mL	83%
O=C(NNC(=O)NC1CCCCC1)Nc1cc(C(F)(F)F)cc(C(F)(F)F)c1	Escherichia coli	ES142					MIC		>200 µM
N=C(N)c1ccc(OCCCCCOc2ccc(C(=N)N)cc2)cc1	Pneumocystis carinii						inhibition	0.1 µg/mL	78%
CC(C)(O)c1cn(-c2ccc([N+](=O)[O-])cc2)nn1	Candida parapsilosis	URM 4984			broth dilution		inhibition	2048 µg/mL	0%
NC(=NCc1ccccc1)c1ccc(N2CCN(c3ccccc3)CC2)cc1	Pneumocystis carinii						inhibition	10 µg/mL	91%
Nc1ncnc2c1ncn2[C@@H]1CC[C@@H](O)[C@H]1O	Measles virus	SA		CV-1	neutral red		EC50		>100 µg/mL
Cc1cc(OCCCc2ccc(=O)[nH]n2)cc(C)c1-c1noc(C(F)F)n1	Enterovirus			HeLa	cytopathic effect		EC50		0.033–0.659 µg/mL
Nc1nc2c(ncn2COC(CO)CO)c(=O)[nH]1	Guinea pig cytomegalovirus			HFF	plaque count		EC50		191 µM
CCN(CC)c1ccc(C(=O)NS(=O)(=O)c2ccccc2O)cc1	Toxoplasma gondii			Human foreskin fibroblasts			MIC50		>1 µM
CC(C)CCN=C(N)c1ccc(N2CCN(c3ccccc3)CC2)cc1	Pneumocystis carinii						inhibition	10 µg/mL	91%
O=C(NC(=O)c1ccccc1OCc1ccccc1)c1ccccc1O	Toxoplasma gondii			Human foreskin fibroblasts			MIC50		>0.25 µM
Fc1cccc(Cn2cnc3c(Nc4cccc(F)c4)nc(C(F)(F)F)nc32)c1	Rhinovirus	Serotype 40		M-HELA	plaque count		EC50		>2.5 µM
C=CCc1ccc(OC)c(OC)c1	Candida parapsilosis	3277			turbidity		MIC90		350 µg/mL
CCN(c1cccc(F)c1)c1nc(C(F)(F)F)nc2c1ncn2Cc1cccc(F)c1	Rhinovirus	Serotype 2		M-HELA	plaque count		EC50		21 µM
CCc1ccc(CCCOc2cc(C)c(-c3noc(C(F)(F)F)n3)c(C)c2)nn1	Enterovirus			HeLa	cytopathic effect		EC50		0.033–0.659 µg/mL
CCC(C)CC(C)CCCCCCCCC(=O)N[C@H]1C[C@@H](O)[C@H](NCCN)NC(=O)[C@@H]2[C@@H](O)CCN2C(=O)[C@H]([C@H](O)CCN)NC(=O)[C@H]([C@H](O)[C@@H](O)c2ccc(O)cc2)NC(=O)[C@@H]2C[C@@H](O)CN2C(=O)[C@H]([C@@H](C)O)NC1=O	Cryptococcus gattii	CBS 10514			broth dilution		MIC		16 µg/mL
O=C(Nc1ccc(S(=O)(=O)[O-])c2cccc(S(=O)(=O)[O-])c12)c1ccccc1	Rhinovirus			Human amnion AV3 cells	cytopathic effect		inhibition	50 µg/mL	5%
CSc1ccc(CCCOc2cc(C)c(-c3noc(C(F)F)n3)c(C)c2)nn1	Enterovirus			HeLa	cytopathic effect		EC50		0.033–0.659 µg/mL
CS[C@H]1C[C@@H](n2cnc3c(N)ncnc32)[C@H](O)[C@@H]1O	Measles virus			CV-1	cytopathic effect		EC50		>100 µg/mL
CCCCN=C(N)c1ccc(N2CCN(c3ccccc3)CC2)cc1	Pneumocystis carinii						inhibition	0.1 µg/mL	28%
Cc1cc(CCCCCOc2cc(Cl)c(-c3nnc(C)o3)c(Cl)c2)on1	Rhinovirus	serotype 2 1A 1B 6 14 21 22 15 25 30 50 67 89 86 41					MIC50		0.14 µg/mL
CCCC(CCC)C(NC(C)=O)C1CC(C(=O)O)CC1N=C(N)N	Influenza B virus	HONG KONG/5/72		MDCK			EC50		1.8 µM
OC[C@H]1O[C@@H](n2c(Br)nc3cc(Cl)c(Cl)cc32)[C@H](O)[C@@H]1O	Human cytomegalovirus	2916RAE (LEU397ARG)		MRC-5	hybridisation		EC50		0.48 µM
Cc1cc(-c2noc(C(F)F)n2)cc(C)c1OCCCc1cccnn1	Enterovirus			HeLa	cytopathic effect		EC50		0.033–0.659 µg/mL
O=c1oc2ccc(Br)cc2c(=S)n1-c1ccc(Cl)c(Cl)c1	Mycobacterium kansasii	6509/96				14 d	MIC		4 µM
OC[C@H]1O[C@@H](n2cnc3c(SCc4ccc(OC(F)(F)F)cc4)ncnc32)[C@H](O)[C@@H]1O	Toxoplasma gondii	RH adenosine kinase-deficient					inhibition	10 µM	0%
CC1CCC(C(=O)N(c2cc(C#CC(C)(C)C)sc2C(=O)O)C2CCC(O)CC2)CC1	Hepatitis C virus	Con1 (gt 1b)	A486I	Huh7	luciferase		fold resistance		102.1
CCCC(CCC)C(NC(C)=O)C1C(N=C(N)N)CC(C(=O)O)C1O	Influenza A virus	Influenza A/Washington/897/80 (H3N2)		MDCK			EC50		<0.01 µM
Cc1nc(-c2cc(C)c(OCCCc3ccco3)c(C)c2)no1	Enterovirus			HeLa	cytopathic effect		EC50		0.033–0.659 µg/mL
O=S(=O)([O-])c1ccc(NS(=O)(=O)c2ccccc2)c2c(S(=O)(=O)[O-])cccc12	Herpes simplex virus			Human conjunctiva cells	cytopathic effect		inhibition	5 µg/mL	0%

Repeating the final 8 entries:

smiles	species	strain or isolate	mutations	cells	read by	conditions	measure	dose	value
OC[C@H]1O[C@@H](n2c(Br)nc3cc(Cl)c(Cl)cc32)[C@H](O)[C@@H]1O	Human cytomegalovirus	2916RAE (LEU397ARG)		MRC-5	hybridisation		EC50		0.48 µM
Cc1cc(-c2noc(C(F)F)n2)cc(C)c1OCCCc1cccnn1	Enterovirus			HeLa	cytopathic effect		EC50		0.033–0.659 µg/mL
O=c1oc2ccc(Br)cc2c(=S)n1-c1ccc(Cl)c(Cl)c1	Mycobacterium kansasii	6509/96				14 d	MIC		4 µM
OC[C@H]1O[C@@H](n2cnc3c(SCc4ccc(OC(F)(F)F)cc4)ncnc32)[C@H](O)[C@@H]1O	Toxoplasma gondii	RH adenosine kinase-deficient					inhibition	10 µM	0%
CC1CCC(C(=O)N(c2cc(C#CC(C)(C)C)sc2C(=O)O)C2CCC(O)CC2)CC1	Hepatitis C virus	Con1 (gt 1b)	A486I	Huh7	luciferase		fold resistance		102.1
CCCC(CCC)C(NC(C)=O)C1C(N=C(N)N)CC(C(=O)O)C1O	Influenza A virus	Influenza A/Washington/897/80 (H3N2)		MDCK			EC50		<0.01 µM
Cc1nc(-c2cc(C)c(OCCCc3ccco3)c(C)c2)no1	Enterovirus			HeLa	cytopathic effect		EC50		0.033–0.659 µg/mL
O=S(=O)([O-])c1ccc(NS(=O)(=O)c2ccccc2)c2c(S(=O)(=O)[O-])cccc12	Herpes simplex virus			Human conjunctiva cells	cytopathic effect		inhibition	5 µg/mL	0%